Anti-infective test results gathered from many reports (values: NIAID ChemDB through PubChem).

All rows: whole-cell or culture tests

Lines come from different laboratories, so protocols vary.

smiles,agent,dose,read-out,strain,method,value
c1ccc(C2=NN(c3ccccc3)C(c3ccc(OCCCCCCOc4ccc(C5CC(c6ccccc6)=NN5c5ccccc5)cc4)cc3)C2)cc1,Aspergillus janus,,MIC,,broth dilution,16 µg/mL
NC(=S)NN=Cc1cccs1,Aspergillus parasiticus,,MIC,MCT 00334,broth dilution,125 µg/mL
CN(C)c1ccc(/C=C2\SC(=O)N(CC(O)(Cn3nccn3)c3ccc(F)cc3F)C2=O)cc1,Aspergillus glaucus,,MIC,,,>100 µg/mL
Cc1ccc2c(c1)C(C=NNC(=O)N1c3ccccc3C=Cc3ccccc31)C(c1ccccc1)=N2,Aspergillus oryzae,1000 µg/mL,zone,MTCC-3567,agar diffusion,14 mm
O=C(/C=C/c1ccc(OCCCCCOc2ccc(/C=C/C(=O)c3ccccc3)cc2)cc1)c1ccccc1,Aspergillus janus,,MIC,,broth dilution,8 µg/mL
CCC(C)n1ncn(-c2ccc(N3CCN(c4ccc(OC[C@H]5CO[C@](Cn6cncn6)(c6ccc(Cl)cc6Cl)O5)cc4)CC3)cc2)c1=O,Aspergillus fumigatus,16 µg/mL,inhibition,AF293,broth dilution,99.94%
CCC(C)/C=C1\SC(=O)N(CC(O)(Cn2nccn2)c2ccc(F)cc2F)C1=O,Aspergillus glaucus,,MIC,,,>100 µg/mL
COc1ccc(NC(=S)N/N=C/c2c[nH]c3ccccc23)cc1,Aspergillus parasiticus,,MIC,CMT 0334,broth dilution,500 µg/mL
O=C1S/C(=C\c2ccc3ccccc3n2)C(=O)N1CC(O)(Cn1nccn1)c1ccc(F)cc1F,Aspergillus glaucus,,MIC,,,>100 µg/mL
CN=C1NN(C(=O)Cc2cc(=O)oc3cc(O)ccc23)C(c2c(O)c3ccccc3oc2=O)=CS1,Aspergillus ochraceus,,MIC50,,broth dilution,0.1 µg/mL
CC(C)=CCC[C@@H](C)CC=O,Aspergillus parasiticus,,MIC,TISTR 3018,broth dilution,4050 µg/mL
N#Cc1ccc(Nc2nc(Oc3cccc4cccnc34)nc(N3CCN(c4ncccn4)CC3)n2)cc1C(F)(F)F,Aspergillus nidulans,100 µg/disc,zone,MTCC 282,agar diffusion / agar,24 mm
Cc1cccc(C=NNC(N)=S)n1,Aspergillus parasiticus,500 µg/mL,inhibition,MCT 00334,broth dilution,100%
N#Cc1ccc(Nc2nc(Oc3cccc4cccnc34)nc(N3CCN(c4cccc(Cl)c4)CC3)n2)cc1C(F)(F)F,Aspergillus clavatus,100 µg/disc,zone,MTCC 1323,agar diffusion / agar,24 mm
c1ccc(-c2ccc(C(c3ccccc3)n3ccnc3)cc2)cc1,Aspergillus versicolor,,MIC,ATCC 11730,broth dilution,100 µg/mL
OO,Aspergillus terreus,,MIC99,UAB673,agar,2000 µM
C[C@@H]1C/C=C/C=C/C=C/C=C/[C@H](OC2O[C@H](C)[C@@H](O)[C@H](N)[C@@H]2O)CC2O[C@](O)(C[C@@H](O)C[C@H]3O[C@@H]3/C=C/C(=O)O1)C[C@H](O)[C@H]2C(=O)O,Aspergillus spp.,,MIC90,Species complex,,32 µg/mL
CCC(C)CC(C)CCCCCCCCC(=O)N[C@H]1C[C@@H](O)[C@H](NCCN)NC(=O)[C@@H]2[C@@H](O)CCN2C(=O)[C@H]([C@H](O)CCN)NC(=O)[C@H]([C@H](O)[C@@H](O)c2ccc(O)cc2)NC(=O)[C@@H]2C[C@@H](O)CN2C(=O)[C@H]([C@@H](C)O)NC1=O,Aspergillus terreus,,MIC,CBS 594.65,broth dilution,128 µg/mL
Cc1cc(O)c2c(c1)C(=O)c1cc(O)c(O)c(O)c1C2=O,Aspergillus nidulans,,MIC100,,visual reading,142–284 µM
CCOc1ccc2c(C(=O)N3NC(=NC)SC=C3c3c(O)c4ccccc4oc3=O)cc(=O)oc2c1,Aspergillus ochraceus,,MIC50,,broth dilution,0.1 µg/mL
Cc1ccc(S(=O)(=O)CNc2oc3[nH]c(=O)[nH]c(=O)c3c2-c2ccc(O)cc2)cc1,Aspergillus oryzae,50 µg/mL,zone,,agar diffusion / agar,13 mm
O=C(NN=CC1C(c2ccccc2)=Nc2ccc(Cl)cc21)N1c2ccccc2C=Cc2ccccc21,Aspergillus terreus,750 µg/mL,zone,MTCC-1782,agar diffusion,9 mm
N#Cc1ccc(Nc2nc(Oc3cccc4cccnc34)nc(N3CCOCC3)n2)cc1C(F)(F)F,Aspergillus clavatus,100 µg/disc,zone,MTCC 1323,agar diffusion / agar,23 mm
C/C(=N\NC(=S)Nc1cccc(Cl)c1)c1c(O)ccc2c(C)cc(=O)oc12,Aspergillus niger,100 µg/mL,inhibition,,agar diffusion / agar,87.21%
Cc1ccc(NC(=S)N/N=C/c2c[nH]c3ccccc23)cc1,Aspergillus parasiticus,,MIC,CMT 0334,broth dilution,500 µg/mL
CCOc1ccc2c(C(=O)N3NC(=NC)SC=C3c3cc4ccccc4oc3=O)cc(=O)oc2c1,Aspergillus ochraceus,,MIC50,,broth dilution,0.1 µg/mL
N#Cc1ccc(Nc2nc(Oc3cccc4cccnc34)nc(N3CCN(c4cccc(Cl)c4Cl)CC3)n2)cc1C(F)(F)F,Aspergillus clavatus,100 µg/disc,zone,MTCC 1323,agar diffusion / agar,25 mm
O=C(NN1C(=O)CSC1C1C(c2ccccc2)=Nc2ccc(Cl)cc21)N1c2ccccc2C=Cc2ccccc21,Aspergillus oryzae,750 µg/mL,zone,MTCC-3567,agar diffusion,11 mm
O=C(/C=C/c1ccc(OCCOc2ccc(/C=C/C(=O)c3ccccc3)cc2)cc1)c1ccccc1,Aspergillus janus,,MIC,,broth dilution,16 µg/mL
CCCCCCNC(=S)N/N=C/c1c[nH]c2ccccc12,Aspergillus parasiticus,,MIC,CMT 0334,broth dilution,500 µg/mL
c1ccc(C2=NN(c3ccccc3)C(c3ccc(OCCCCCCCCOc4ccc(C5CC(c6ccccc6)=NN5c5ccccc5)cc4)cc3)C2)cc1,Aspergillus janus,,MIC,,broth dilution,8 µg/mL
CCN=C1NN(C(=O)c2cc(=O)oc3cc(OCC)ccc23)C(c2c(O)c3ccccc3oc2=O)=CS1,Aspergillus ochraceus,,MIC50,,broth dilution,0.1 µg/mL
COC(=O)/C(C)=C1\C(=O)[C@H](O)[C@]2(C)C3=C1[C@]14OC(=O)C5=C1C[C@H]1[C@](O)(COC(=O)/C(C)=C/COC(=O)CCC(=O)OC5)[C@H]5C[C@H]5[C@]1(C)[C@@H]4C[C@]3(O)[C@H]1C[C@H]12,Aspergillus spp.,,MIC,ATCC 293,broth dilution,64 µg/mL
CCCCCCCCOC(=O)[C@]1(O)C[C@@H](O)[C@@H](O)[C@H](OC(=O)/C=C/c2ccc(O)c(O)c2)C1,Aspergillus westerdijkiae,,MIC50,CBS 112803,absorbance,500 µg/mL
CC1=C2C[C@@H]3[C@](C)(CCC[C@@]3(C)O)C[C@]2(O)OC1=O,Aspergillus spp.,,MIC,ATCC 293,broth dilution,>256 µg/mL
Cc1ccc(-c2c(NCS(=O)(=O)c3ccc(C)cc3)oc3[nH]c(=O)[nH]c(=O)c23)cc1,Aspergillus oryzae,100 µg/mL,zone,,agar diffusion / agar,25 mm
CN1CCN(c2nc(Nc3ccc(C#N)c(C(F)(F)F)c3)nc(Oc3cccc4cccnc34)n2)CC1,Aspergillus clavatus,100 µg/disc,zone,MTCC 1323,agar diffusion / agar,18 mm
C[C@@H](c1ncncc1F)[C@](O)(Cn1cncn1)c1ccc(F)cc1F,Aspergillus lentulus,,MIC50,,broth dilution,2 µg/mL
O=C1S/C(=C\c2cccnc2)C(=O)N1CC(O)(Cn1nccn1)c1ccc(F)cc1F,Aspergillus glaucus,,MIC,,,>100 µg/mL
COc1cc(/C=C/C(C)=O)ccc1O,Aspergillus ochraceus,,MFC,MTCC 4643,broth dilution,963 µM
CO[C@@]12OC(=O)C(C)=C1C1=C3[C@](C)([C@@H]4C[C@@H]4[C@@]3(O)C[C@@H]3[C@]14OC(=O)C1=C4C[C@H]4[C@](O)(COC(=O)/C(C)=C/COC(=O)CCC(=O)OC1)[C@H]1C[C@H]1[C@]34C)[C@H]2O,Aspergillus spp.,,MIC,ATCC 293,broth dilution,>256 µg/mL
O=C(/C=C/c1ccc(OCCCCOc2ccc(/C=C/C(=O)c3ccccc3)cc2)cc1)c1ccccc1,Aspergillus janus,,MIC,,broth dilution,8 µg/mL
CCNC(=S)N/N=C/C=C/c1ccccc1,Aspergillus parasiticus,,MIC,CMT 0334,broth dilution,500 µg/mL
Cc1coc2c1C(=O)[C@@H]1[C@@](C)(C2)[C@H](O)CC[C@@]1(C)O,Aspergillus spp.,,MIC,ATCC 293,broth dilution,>256 µg/mL
CCN=C1NN(C(=O)c2cc(=O)oc3cc(OCC)ccc23)C(c2cc3ccccc3oc2=O)=CS1,Aspergillus ochraceus,,MIC50,,broth dilution,0.1 µg/mL
Cc1ccc(S(=O)(=O)CNc2oc3[nH]c(=O)[nH]c(=O)c3c2-c2ccsc2C=O)cc1,Aspergillus oryzae,100 µg/mL,zone,,agar diffusion / agar,18 mm
O=C1S/C(=C\c2ccc(F)cc2)C(=O)N1CC(O)(Cn1nccn1)c1ccc(F)cc1F,Aspergillus glaucus,,MIC,,,>100 µg/mL

6 of the rows above, restated:

smiles	agent	dose	read-out	strain	method	value
CO[C@@]12OC(=O)C(C)=C1C1=C3[C@](C)([C@@H]4C[C@@H]4[C@@]3(O)C[C@@H]3[C@]14OC(=O)C1=C4C[C@H]4[C@](O)(COC(=O)/C(C)=C/COC(=O)CCC(=O)OC1)[C@H]1C[C@H]1[C@]34C)[C@H]2O	Aspergillus spp.		MIC	ATCC 293	broth dilution	>256 µg/mL
O=C1S/C(=C\c2ccc3ccccc3n2)C(=O)N1CC(O)(Cn1nccn1)c1ccc(F)cc1F	Aspergillus glaucus		MIC			>100 µg/mL
C/C(=N\NC(=S)Nc1cccc(Cl)c1)c1c(O)ccc2c(C)cc(=O)oc12	Aspergillus niger	100 µg/mL	inhibition		agar diffusion / agar	87.21%
CC1=C2C[C@@H]3[C@](C)(CCC[C@@]3(C)O)C[C@]2(O)OC1=O	Aspergillus spp.		MIC	ATCC 293	broth dilution	>256 µg/mL
Cc1ccc(NC(=S)N/N=C/c2c[nH]c3ccccc23)cc1	Aspergillus parasiticus		MIC	CMT 0334	broth dilution	500 µg/mL
CN=C1NN(C(=O)Cc2cc(=O)oc3cc(O)ccc23)C(c2c(O)c3ccccc3oc2=O)=CS1	Aspergillus ochraceus		MIC50		broth dilution	0.1 µg/mL

An empty or dashed field is not shown. Two numbers with a dash give a range or band. Inhibition is in % at the dose shown (toxicity tests: loss of growth or viability). Zones are inhibition diameters on agar. A number after MIC or MFC names an inhibition level or a share of isolates.